Anti-infective test results gathered from many reports (values: NIAID ChemDB through PubChem).

All rows: whole-cell or culture tests; species: Herpes simplex virus 1; read by: plaque count; endpoint: EC50

An empty or dashed field is not shown. Conditions beyond the fields shown may differ between rows. ECn: concentration that inhibits the pathogen or its effect by n%.

| structure | cells | strain or isolate | value |
|---|---|---|---|
| O=c1ccn([C@H]2C[C@H](O)[C@@H](CO)O2)c(=S)[nH]1 | RPMI8226 | KOS | 8.6 µM |
| COc1ccc2nc3cc(Cl)ccc3c(NCC[C@@H]3CCCN4CCCC[C@H]34)c2c1 | VERO 76 | - | >3 µM |
| O=c1[nH]c(=S)n([C@@H]2O[C@H](CO)[C@@H](O)[C@@H]2O)cc1Br | MRC-5 | TK- | >295 µM |
| Cc1cccc2c1OP(=O)(OC[C@H]1O[C@@H](n3cc(/C=C/Br)c(=O)[nH]c3=O)C[C@@H]1OC(=O)[C@H]1CCCN1)OC2 | VERO | B2006 (TK-) | >128 µg/mL |
| [N-]=[N+]=CC(=O)CC[C@H](N)C(=O)O | VERO | Clinical isolate | 7.9 µM |
| COc1ccc2nc3cc(Cl)ccc3c(N[C@H]3CCCN4CCCC[C@H]34)c2c1 | VERO 76 | - | >60 µM |
| O=c1[nH]c(=O)n([C@H]2C[C@H](O)[C@@H](COP3(=O)OCc4cc5ccccc5cc4O3)O2)cc1/C=C/Br | VERO | KUPKA (TK+) | 0.14 µg/mL |
| O=c1[nH]c(=S)n([C@H]2C[C@H](O)[C@@H](CO)O2)cc1F | RPMI8226 | KOS | 1.46 µM |
| Cc1cccc2c1OP(=O)(OC[C@H]1O[C@@H](n3cc(/C=C/Br)c(=O)[nH]c3=O)C[C@@H]1OC(=O)[C@@H]1CCCN1)OC2 | VERO | KUPKA (TK+) | 0.44 µg/mL |
| COc1ccc2nc3cc(Cl)ccc3c(NCCN3CCOCC3)c2c1 | VERO 76 | - | >12 µM |
| CC(=O)O[C@H]1C[C@H](n2cc(/C=C/Br)c(=O)[nH]c2=O)O[C@@H]1COP1(=O)OCc2cccc(C)c2O1 | VERO | B2006 (TK-) | >128 µg/mL |
| O=c1[nH]c(=S)n([C@H]2C[C@H](O)[C@@H](CO)O2)cc1I | RPMI8226 | KOS | 1.06 µM |
| COc1ccc2nc3cc(Cl)ccc3c(NCCCCCO)c2c1 | VERO 76 | - | >35 µM |
| Cc1cn([C@H]2C[C@H](O)[C@@H](CO)O2)c(=O)[nH]c1=O | RPMI8226 | KOS | >413 µM |
| Cc1cccc2c1OP(=O)(OC[C@H]1O[C@@H](n3cc(/C=C/Br)c(=O)[nH]c3=O)C[C@@H]1OC(=O)[C@H](N)C(C)C)OC2 | VERO | KUPKA (TK+) | 0.57 µg/mL |
| COc1ccc2nc3cc(Cl)ccc3c(NC3CN4CCC3CC4)c2c1 | VERO 76 | - | >35 µM |

Repeating the first 2 entries:

structure,cells,strain or isolate,value
O=c1ccn([C@H]2C[C@H](O)[C@@H](CO)O2)c(=S)[nH]1,RPMI8226,KOS,8.6 µM
COc1ccc2nc3cc(Cl)ccc3c(NCC[C@@H]3CCCN4CCCC[C@H]34)c2c1,VERO 76,-,>3 µM